The record followed here is ChEMBL document CHEMBL1667755, “2-hydroxyisoquinoline-1,3(2H,4H)-diones as inhibitors of HIV-1 integrase and reverse transcriptase RNase H domain: influence of the alkylation of position 4” (Eur J Med Chem, 2011).

The subject of the assay is Human immunodeficiency virus 1. In words: Selectivity ratio of IC50 for recombinant HIV-1 reverse transcriptase RNase H domain to IC50 for HIV-1 integrase.

As for `CC1C(=O)N(O)C(=O)c2ccccc21` (configuration not stated), the Ratio IC50 turned out to be 11.8.
Take `CCCCCCC1C(=O)N(O)C(=O)c2ccccc21` (configuration not stated): the Ratio IC50 stood at 3.3.
As to `CCCCCCc1c(O)n(O)c(=O)c2ccccc12`, the Ratio IC50 amounted to 0.2.
Take `O=C1c2ccccc2C(Cc2ccc(C(F)(F)F)cc2)C(=O)N1O` (configuration not stated): the Ratio IC50 came out at 1.8.
Consider `O=C1c2ccccc2C(CCCc2ccccc2)C(=O)N1O` (configuration not stated), for which the Ratio IC50 amounted to 25.7.
In the case of `Cc1ccc(CC2C(=O)N(O)C(=O)c3ccccc32)cc1` (configuration not stated) it was 23.5; in that of `CCCC1C(=O)N(O)C(=O)c2ccccc21` (configuration not stated), 2.2.
With `CC(C)C1C(=O)N(O)C(=O)c2ccccc21` (configuration not stated), the Ratio IC50 is 0.52.
As to `O=c1c2ccccc2c(Cc2ccccc2)c(O)n1O`, the Ratio IC50 came to 0.4.
In the case of `CCC1C(=O)N(O)C(=O)c2ccccc21` (configuration not stated) it was 4.5; in that of `CCCCC1C(=O)N(O)C(=O)c2ccccc21` (configuration not stated), 0.3; in that of `CCCCCC1C(=O)N(O)C(=O)c2ccccc21` (configuration not stated), 24.9.
